Measured values as given in ChEMBL document CHEMBL3997795, “Conjugates of 2,4-Dihydroxybenzoate and Salicylhydroxamate and Lipocations Display Potent Antiparasite Effects by Efficiently Targeting the Trypanosoma brucei and Trypanosoma congolense Mitochondrion” (J Med Chem, 2017).

Columns and labels:
[1] = test system: Trypanosoma brucei brucei; assay: Anti-parasitic activity against bloodstream trypomastigote stage of wild-type Trypanosoma brucei brucei Lister 427 after 48 hrs by alamar blue based fluorescence assay
[2] = Selectivity index, ratio of CC50 for HEK293T cells to EC50 for bloodstream form of Trypanosoma congolense IL3000; settings: human

`O=[As]c1ccccc1` (configuration not stated) gave an EC50 [1] of 1.1 nM and a Ratio CC50/EC50 [2] of 0.036.
